Results of unrelated studies side by side (data: NIAID ChemDB).

Shared fields: whole-cell or culture tests; agent: Mycobacterium smegmatis; endpoint: MIC

Rows are shuffled and stem from different studies.

smiles | strain | read by | result
Cc1c(N2CC3CCC(C)(NC(=O)[C@H](C)N)C3C2)c(F)cn2c(=O)c(C(=O)O)cc(C3CC3)c12.Cl | ATCC114 | - | 1.56 µg/mL
O[C@H](c1cc(C(F)(F)F)nc2c(C(F)(F)F)cccc12)[C@@H]1CCCCN1 | mc2155 | resazurin | 20 µM
Cc1c(N2CCC(N3CCCCC3)CC2)c(F)cn2c(=O)c(C(=O)O)cc(C3CC3)c12.O=C(O)C(F)(F)F | ATCC114 | - | 0.78 µg/mL
Cc1nc(-c2ccccc2)sc1-c1csc(-c2ccc(Br)cc2)n1 | - | absorbance | 80.66 µM
COc1ccc(-c2nn(-c3ccccc3)cc2C2C3=C(NC(C)(c4cc(O)c(I)cc4Cl)NC3=O)Oc3c2c(C)nn3-c2ccccc2)cc1 | NCIM 5138 | agar diffusion / agar | 50 µg/mL
CC[C@@H](C(=O)[C@@H](C)[C@@H](O)[C@H](C)[C@@H]1O[C@@H]([C@@H](CC)C(=O)O)CC[C@@H]1C)[C@H]1O[C@@]2(C=C[C@@H](O)[C@@]3(CC[C@@](C)([C@H]4CC[C@](O)(CC)[C@H](C)O4)O3)O2)[C@H](C)C[C@@H]1C | mc2155 | resazurin | 3.125 µg/mL
COC1=Cc2ccnc3ccnc(c23)C1=O | mc2155 | MTT / low oxygen / turbidity | 6.25 µg/mL
Cc1ccc(-c2nc(C)c(-c3csc(Cc4ccc(F)cc4)n3)s2)cc1 | - | absorbance | 96.32 µM
N#CC(C#N)=NNc1cccc(Cl)c1 | mc2 155 / ATCC 700084 | broth dilution | 25 µg/mL
CCCCCC/C1=C\c2csc(n2)[C@H](C)[C@@H](O)C[C@H](O)/C=C/C=C\C[C@H](O)[C@H]([C@H](O)[C@@H](C)/C=C(C)/C=C(\C)C(C)OC)OC1=O | - | visual reading | 32 µg/mL
COc1cc(NC(C)CCCN)c2ncccc2c1 | mc2155 | resazurin | 620 µM
Cc1c(N2CCC(C3(N)CC3)C2)c(F)cn2c(=O)c(C(=O)O)cc(C3CC3)c12.Cl | ATCC114 | - | 0.01 µg/mL
O=C(CSc1nnc2scc(-c3ccccc3)n12)Nc1ccc(N2CCCC2)cc1 | - | absorbance | 410.7 µM
CC(C)Cc1cnc(C(=O)/C=C/c2ccccc2Br)cn1 | CCM | absorbance | 62.5 µg/mL
CN(C)[C@@H]1C(=O)C(C(N)=O)=C(O)[C@@]2(O)C(=O)C3=C(O)c4c(O)cccc4[C@@](C)(O)[C@H]3C[C@@H]12 | PSB51 LFR | - | 1 µg/mL
Cc1nn(-c2ccccc2)c2c1C(c1cn(-c3ccccc3)nc1-c1ccc(Cl)cc1)C1=C(NC(C)(c3cc(O)c(Cl)c(O)c3)NC1=O)O2 | NCIM 5138 | agar diffusion / agar | 70 µg/mL
COc1c(N2CCNCC2)c(F)cc2c(=O)c(C(=O)O)cn(C3CC3)c12 | ATCC 19420 | - | 0.13 µg/mL
NNC(=O)c1ccncc1 | mc2155 | MTT / low oxygen / turbidity | 25 µg/mL
Cc1nc(-c2ccc(F)cc2)sc1-c1csc(-c2ccc(F)cc2)n1 | - | absorbance | 48.22 µM
O=c1cc(Nc2ccc(S(=O)(=O)O)cc2)nc2scc(-c3ccc([N+](=O)[O-])cc3)n12 | - | broth dilution / visual reading | >800 µg/mL
COc1cc(O)cc(/C=C/c2cc3ccccc3s2)c1 | - | broth dilution | 32 µg/mL
Cc1onc(-c2ccccc2)c1C(=O)N[C@@H]1C(=O)N2[C@@H]1SC(C)(C)[C@@H]2C(=O)O | mc2155 | resazurin | 256 µg/mL
CO[C@H]1/C=C/O[C@@]2(C)Oc3c(C)c(O)c4c(O)c(c(/C=N/N5CCN(C)CC5)c(O)c4c3C2=O)NC(=O)/C(C)=C\C=C\[C@H](C)[C@H](O)[C@@H](C)[C@@H](O)[C@@H](C)[C@H](OC(C)=O)[C@@H]1C | - | broth dilution / visual reading | 25 µg/mL
Cc1c(N2CCNC(C)C2)c(F)cn2c(=O)c(C(=O)O)cc(C3CC3)c12.Cl | ATCC114 | - | 0.78 µg/mL
Cc1nc(-c2ccc(F)cc2)sc1-c1csc(Cc2ccc(F)cc2)n1 | - | absorbance | 30.38 µM
CC(C)c1c(O)cc([C@H](N=C(N)N)C(=O)O)cc1O | mc2155 | visual reading | >500 µg/mL
CCNC1CCN(c2c(F)cn3c(=O)c(C(=O)O)cc(C4CC4)c3c2C)C1.Cl | ATCC114 | - | 0.02 µg/mL
CC(C)(C)c1cnc(C(=O)/C=C/c2ccc(F)cc2)cn1 | CCM | absorbance | >125 µg/mL
CO[C@H]1/C=C/O[C@@]2(C)Oc3c(C)c(O)c4c(O)c(c(/C=N/N5CCN(C)CC5)c(O)c4c3C2=O)NC(=O)/C(C)=C\C=C\[C@H](C)[C@H](O)[C@@H](C)[C@@H](O)[C@@H](C)[C@H](OC(C)=O)[C@@H]1C | Rifampicin-resistant | broth dilution / visual reading | 500 µg/mL
CO[C@H]1/C=C/O[C@@]2(C)Oc3c(C)c(O)c4c(O)c(c(/C=N/N5CCN(C)CC5)c(O)c4c3C2=O)NC(=O)/C(C)=C\C=C\[C@H](C)[C@H](O)[C@@H](C)[C@@H](O)[C@@H](C)[C@H](OC(C)=O)[C@@H]1C | mc2155 | resazurin | 31 µM
CC(C)(C)c1cnc(C(=O)/C=C/c2ccccc2Cl)cn1 | CCM | absorbance | 3.9 µg/mL
C/C=C(C)/C=C(\C)[C@@H](O)[C@H](O)[C@H]1OC(=O)/C=C/c2csc(n2)[C@H](C)[C@@H](O)C[C@H](O)/C=C/C=C\C[C@H](O)[C@H]1O | - | visual reading | >64 µg/mL
CC[n+]1c(-c2ccccc2)c2cc(N)ccc2c2ccc(N)cc21 | MC^2 552 (ciprofloxacin-resistant) | - | 32 µg/mL
O=c1cc(Nc2ccc(S(=O)(=O)O)cc2)nc2scc(-c3cccc([N+](=O)[O-])c3)n12 | - | broth dilution / visual reading | >800 µg/mL
CCc1c(N2CCC(N)C2)c(F)cn2c(=O)c(C(=O)O)cc(C3CC3)c12.Cl | ATCC114 | - | 50 µg/mL
Cc1nc(-c2ccc(Cl)cc2)sc1-c1csc(Cc2ccc(F)cc2)n1 | - | absorbance | 74.64 µM
CC(CC(=O)N(C)O)CP(=O)(O)O | ATCC 700084 | broth dilution / turbidity | >250 µM
CO[C@H]1/C=C/O[C@@]2(C)Oc3c(C)c(O)c4c(O)c(c(/C=N/N5CCN(C)CC5)c(O)c4c3C2=O)NC(=O)/C(C)=C\C=C\[C@H](C)[C@H](O)[C@@H](C)[C@@H](O)[C@@H](C)[C@H](OC(C)=O)[C@@H]1C | - | resazurin | >100 µM
C[C@H]1COC2(CCN(c3nc(=O)c4cc(C(F)(F)F)cc([N+](=O)[O-])c4s3)CC2)O1 | mc2155 | broth dilution / turbidity | 0.002 µg/mL
NC(=O)c1c(NC(=O)C2CC2)sc2cc(O)c(Br)cc12 | mc2155 | resazurin / absorbance | >100 µM
C[C@H]1c2cccc(O)c2C(O)=C2C(=O)[C@]3(O)C(O)=C(C(N)=O)C(=O)[C@@H](N(C)C)[C@@H]3[C@@H](O)[C@@H]21 | A28315 | - | 0.06 µg/mL
CCC[C@H](N)[C@@H]1CCN(c2c(F)cn3c(=O)c(C(=O)O)cc(C4CC4)c3c2C)C1.Cl | ATCC114 | - | 0.1 µg/mL
Cc1nn(-c2ccccc2)c2c1C(c1cn(-c3ccccc3)nc1-c1ccc(Cl)cc1)C1=C(NC(C)(c3cc(O)cc(O)c3)NC1=O)O2 | NCIM 5138 | agar diffusion / agar | 100 µg/mL
CNCC1CCCN(c2c(F)cn3c(=O)c(C(=O)O)cc(C4CC4)c3c2C)C1.Cl | ATCC114 | - | 0.39 µg/mL
CC(C)c1cnc(C(=O)/C=C/c2ccc(Cl)cc2)cn1 | CCM | absorbance | >125 µg/mL
COc1cc2c3c(ccnc3c1OC)NC=C2 | mc2155 | MTT / low oxygen / turbidity | 200 µg/mL
Cc1ccc(-c2nc(C)c(-c3csc(-c4ccccc4)n3)s2)cc1 | - | absorbance | 90.99 µM
COc1c(N2CCNC(C)C2)c(F)cc2c(=O)c(C(=O)O)cn(C3CC3)c12 | ATCC 19420 | - | 0.06 µg/mL
NC(N)=N[C@H](C(=O)O)c1ccccc1 | mc2155 | visual reading | >500 µg/mL
C/C=C(C)/C=C(\C)[C@@H](O)[C@H](C)[C@@H](O)[C@@H]1OC(=O)/C(CCCCCC)=C/c2csc(n2)[C@H](C)[C@@H](O)C[C@H](O)/C=C/C=C\C[C@@H]1O | - | visual reading | 64 µg/mL
CCOc1c(N2CCC(CNC)C2)c(F)cc2c(=O)c(C(=O)O)cn(C3CC3)c12 | ATCC 19420 | - | 0.25 µg/mL

The last 6 rows once more:

smiles,strain,read by,result
COc1cc2c3c(ccnc3c1OC)NC=C2,mc2155,MTT / low oxygen / turbidity,200 µg/mL
Cc1ccc(-c2nc(C)c(-c3csc(-c4ccccc4)n3)s2)cc1,-,absorbance,90.99 µM
COc1c(N2CCNC(C)C2)c(F)cc2c(=O)c(C(=O)O)cn(C3CC3)c12,ATCC 19420,-,0.06 µg/mL
NC(N)=N[C@H](C(=O)O)c1ccccc1,mc2155,visual reading,>500 µg/mL
C/C=C(C)/C=C(\C)[C@@H](O)[C@H](C)[C@@H](O)[C@@H]1OC(=O)/C(CCCCCC)=C/c2csc(n2)[C@H](C)[C@@H](O)C[C@H](O)/C=C/C=C\C[C@@H]1O,-,visual reading,64 µg/mL
CCOc1c(N2CCC(CNC)C2)c(F)cc2c(=O)c(C(=O)O)cn(C3CC3)c12,ATCC 19420,-,0.25 µg/mL

Blank or dashed fields: not listed here.